Tested on: CD8+ cells
Assay: Two color FACS (CD62L, CFSE) of peptide-stimulated CD8+ cells
Format: cell-based, human
Details: Donor 1 CD8+ cells, 20 additional days in IL-2

## M1: influenza matrix CTL epitope M1: 58-66, positive control
  CD62L+ cells in the resulting population: 21%
